Results of unrelated studies side by side (data: NIAID ChemDB).

Shared fields: tests on isolated targets

ICn is the concentration giving n% inhibition. Inhibition is in % at the dose shown (toxicity tests: loss of growth or viability). Rows are shuffled and stem from different studies. Blank or dashed fields: not listed here. Fold resistance: result on the changed form divided by that on wild type.

SMILES	changes	target	endpoint	method	organism	tested at	strain	result
C/C(=N\NC(=S)NNC(=S)Nc1cccc(Br)c1)c1ccccn1		Ribonucleotide reductase	IC50		Herpes simplex virus 1			>5 µM
N/C(=N\OC(=O)c1ccccc1-c1ccccc1)c1ccc(Cl)cc1Cl		Polymerase	IC50	scintillation proximity / radiometric	Human cytomegalovirus			5.4 µM
Nc1nc(N)c(-c2ccc(Cl)cc2)c(/C=C/c2ccc([N+](=O)[O-])cc2)n1		Dihydrofolate reductase	IC50		Cryptosporidium parvum		TYPE I	80 µM
C[C@H]1COC2(CCN(c3nc(=O)c4cc(C(F)(F)F)cc([N+](=O)[O-])c4s3)CC2)O1		Cytochrome P450 1A2	IC50	fluorescence / absorbance	Mycobacterium tuberculosis			21.98 µM
O=C(Nc1nnc(NC2CCCc3ccccc32)s1)c1cccc([N+](=O)[O-])c1		Polymerase	IC50		Human cytomegalovirus			>25 µM
CC(C)C[C@H](NC(=O)[C@@H](O)[C@H](N)Cc1ccccc1)C(=O)O		PfM1AAP	IC50	fluorescence	Plasmodium falciparum			0.3 µM
O=C(O)CP(=O)(O)O		DNA polymerase	inhibition		Epstein-Barr virus	0.5 µg/mL		26.2%
OCC1=NO[C@H]2[C@H](O)C(O)O[C@@H]12		Beta-galactosidase	IC50		Aspergillus niger			>1000 µM
N/C(=N/OC(=O)c1cccc2ccccc12)c1ccc(F)cc1Cl		Polymerase	IC50	scintillation proximity / radiometric	Human cytomegalovirus			28.6 µM
C[C@@H]1CN(c2c(F)c(N)c3c(=O)c(C(=O)O)cn(C4CC4)c3c2F)C[C@H](C)N1		Topoisomerase IV	IC50		Streptococcus pneumoniae		J24 (quinolone- penicillin-sensitive)	10.7 µg/mL
Oc1ccc(CN[C@@H]2[C@H](O)[C@@H](O)[C@H](O)[C@H]3O[C@@H]23)cc1		Amyloglucosidase	inhibition		Aspergillus niger	100 µM		54%
CC(=O)c1ccc(N2CCN(c3cncc(-c4ccc(F)cc4)n3)CC2)cc1		UL97 kinase	IC50		Cytomegalovirus			<10 µM
C/C(=N\NC(=S)NNC(=S)Nc1ccccc1I)c1ccccn1		Ribonucleotide reductase	IC50		Herpes simplex virus 1			>5 µM
c1ccc(N2CCN(c3cncc(-c4ccsc4)n3)CC2)nc1		UL97 kinase	IC50		Cytomegalovirus			<10 µM
Nc1nc(N)c(CCCOc2ccc(NC(=O)c3cccc(S(=O)(=O)F)c3)cc2Cl)c(N)n1		Dihydrofolate reductase	IC50		Cryptosporidium parvum		TYPE I	30 µM
O=C(/C=C/c1ccccc1)Nc1nnc(NC2CCN(Cc3ccccc3)CC2)s1		Polymerase	IC50		Human cytomegalovirus			>25 µM
C[C@H](CO)[C@@H](OC(=O)NCCSc1ncccn1)[C@@H]1OC(C(=O)O)=C[C@H](N=C(N)N)[C@H]1NC(=O)O		Sialidase	IC50		Influenza A virus		H3N2 AICHI	0.0062 µM
Cc1c(F)cccc1C(=O)O/N=C(\N)c1ccc(Cl)cc1Cl		Polymerase	IC50	scintillation proximity / radiometric	Human cytomegalovirus			2.1 µM
COc1cc(N(C)Cc2csc3nc(N)nc(N)c23)cc(OC)c1OC		DHFR	inhibition		Toxoplasma gondii	10 µM		<30%
CC(C)N(C(=O)O[C@@H]([C@@H]1OC(C(=O)O)=C[C@H](N)[C@H]1NC(=O)O)[C@H](C)CO)C(C)C		Sialidase	IC50		Influenza B virus		Victoria	24 µM
CC1c2nc(N)nc(N)c2CN1C(=O)c1ccccc1		Dihydrofolate reductase	IC50		Cryptosporidium parvum		TYPE I	>100 µM
COc1cc(NCc2csc3nc(N)nc(N)c23)cc(OC)c1OC		DHFR	inhibition		Toxoplasma gondii	10 µM		<30%
N[C@@H]1[C@H](O)[C@@H](O)[C@H](O)[C@@H]2O[C@H]12		Amyloglucosidase	inhibition		Aspergillus niger	100 µM		0%
C[C@H](CO)[C@@H](OC(=O)N1CCNCC1)[C@@H]1OC(C(=O)O)=C[C@H](N=C(N)N)[C@H]1NC(=O)O		Sialidase	IC50		Influenza A virus		H3N2 AICHI	0.038 µM
COCCN1CCN(C(=O)c2nc3cc(C(F)(F)F)cc([N+](=O)[O-])c3s2)CC1		Cytochrome P450 2C9	IC50	fluorescence / absorbance	Mycobacterium tuberculosis			>100 µM
N/C(=N/OC(=O)c1cccc2ccccc12)c1cc(Cl)cc(Cl)c1		Polymerase	IC50	scintillation proximity / radiometric	Human cytomegalovirus			>100 µM
CCCNC(=O)O[C@@H]([C@@H]1OC(C(=O)O)=C[C@H](N)[C@H]1NC(=O)O)[C@H](C)CO		Sialidase	IC50		Influenza B virus		Victoria	1.3 µM
O=C(Nc1nnc(NCc2cccc3ccccc23)s1)c1ccc(F)cc1F		Polymerase	IC50		Human cytomegalovirus			>25 µM
Cc1[nH]nc2c1C(c1cc(Cl)cc(-c3ccc(C(=O)OCc4ccccc4)cc3)c1)(C1CCC1)C(C#N)=C(N)O2		Serine hydroxymethyltransferase	IC50	absorbance	Plasmodium falciparum			1.96 µM
Cc1cccc(-c2cncc(N3CCN(c4ccncc4)CC3)n2)c1		UL97 kinase	IC50		Cytomegalovirus			<10 µM
Cc1cn([C@@H]2O[C@H](CO)[C@@H](O)[C@@H]2O)c(=O)[nH]c1=O		Thymidylate synthetase	IC50		Varicella zoster virus		Kanno-Kohmura (TK-)	>100 µM
O=C(c1ccc(Cl)cc1)c1ccc(OCCN2CCN(CCO)CC2)cc1		Oxidosqualene cyclase	inhibition		Pneumocystis carinii	10 µM		20%
CN(Cc1cnc(N)nc1N)c1ccc(C(=O)NC(CCC(=O)O)C(=O)O)cc1		Dihydrofolate reductase	IC50		Cryptosporidium parvum		TYPE I	0.006 µM
O=c1[nH][nH]c(=O)c2c1ncn2[C@@H]1C[C@H](O)[C@@H](CO)O1		NTPase/helicase	IC50		West Nile virus			0.185 µM
Cc1[nH]nc2c1C(c1cc(Cl)cc(-c3ccc(-c4nn[nH]n4)cc3)c1)(C1CCC1)C(C#N)=C(N)O2		Serine hydroxymethyltransferase	Ki	absorbance	Plasmodium falciparum			0.145 µM
c1cncc(-c2cncc(N3CCN(c4cccc5[nH]ccc45)CC3)n2)c1		UL97 kinase	IC50		Cytomegalovirus			<10 µM
COc1ccccc1C(=O)Nc1nnc(NCCc2ccc(S(N)(=O)=O)cc2)s1		Polymerase	IC50		Human cytomegalovirus			>25 µM
C[C@@H](c1ccccc1)N(CC(=O)Nc1ccc(-c2csc(N)n2)cc1)C(=O)c1ccncc1		Primase	IC50		Herpes simplex virus 1			0.15 µM
CC(C)c1cc(C(C)C)c(C(=O)Nc2nnc(NCCc3cnc[nH]3)s2)c(C(C)C)c1		Polymerase	IC50		Human cytomegalovirus			>25 µM
O=C(O[C@@H]1O[C@@H]2COC(=O)c3cc4c(O)c(O)c3-c3c(cc(O)c(O)c3O)C(=O)O[C@H]2[C@H](OC(=O)c2cc(O)c(O)c(O)c2)[C@H]1OC(=O)c1cc(O)c(O)c(O)c1Oc1cc2c(c(O)c1O)-c1c(cc(O)c(O)c1O)C(=O)OC[C@H]1OC(O)[C@H](OC(=O)c3cc(O)c(O)c(O)c3O4)[C@@H](OC(=O)c3cc(O)c(O)c(O)c3)[C@@H]1OC2=O)c1cc(O)c(O)c(O)c1		DNA polymerase	inhibition		Epstein-Barr virus	7.5 µg/mL		67.3%
CCOc1ccc2ccccc2c1C(=O)Nc1nnc(NCCC(=O)OC(C)(C)C)s1		Polymerase	IC50		Human cytomegalovirus			>25 µM
Cc1cn([C@H]2CC[C@@H](CO)O2)c(=O)[nH]c1=O		Thymidylate synthetase	IC50		Varicella zoster virus		Kanno-Kohmura (TK-)	>100 µM
Clc1cc(CN2CCCNCCNCCCNCC2)cc(Cl)n1	CXCR4-D262N	CXCR4	IC50					0.57 µM
Clc1ccc(-c2cncc(NCc3ccccc3)n2)cc1		UL97 kinase	IC50		Cytomegalovirus			<100 µM
CC(C)c1cc(C(C)C)c(C(=O)Nc2nnc(NCCN3CCCC3)s2)c(C(C)C)c1		Polymerase	IC50		Human cytomegalovirus			>25 µM
Cc1onc(-c2ccccc2)c1C(=O)O/N=C(\N)c1ccc(Cl)cc1Cl		Polymerase	IC50	scintillation proximity / radiometric	Human cytomegalovirus			0.7 µM
C/C(=N\NC(=S)NNC(=S)Nc1cccc(Cl)c1Cl)c1ccccn1		Ribonucleotide reductase	IC50		Herpes simplex virus 1			>5 µM
Nc1nc2c(ncn2[C@H]2CC[C@@H](COP(=O)(O)OP(=O)(O)OP(=O)(O)O)O2)c(=O)[nH]1	RT-Y271S	Reverse transcriptase	fold resistance	nucleotide incorporation	HIV			>5
Cc1ccc(N2CCN(c3cncc(-c4ccc(F)cc4)n3)CC2)cc1		UL97 kinase	IC50		Cytomegalovirus			<10 µM
N[C@@H]1[C@H](O)[C@@H](O)[C@H](O)[C@H]2O[C@@H]12		Amyloglucosidase	inhibition		Aspergillus niger	100 µM		18%
Cc1[nH]nc2c1C(c1cc(C#N)cc(N3CCCC3=O)c1)(C1CCC1)C(C#N)=C(N)O2		Serine hydroxymethyltransferase	IC50	absorbance	Plasmodium falciparum			0.59 µM
CCc1c(Cl)nc(N)nc1Nc1ccc(Br)cc1		Dihydrofolate reductase	IC50		Cryptosporidium parvum		TYPE I	>200 µM
Cc1cccc(C)c1C(=O)O/N=C(\N)c1ccc(Cl)cc1Cl		Polymerase	IC50	scintillation proximity / radiometric	Human cytomegalovirus			32 µM
NC1CCN(c2nc3c(cc2F)c(=O)c(C(=O)O)cn3-c2ccc(F)cc2F)C1		DNA gyrase	IC50		Streptococcus pneumoniae		J24 (quinolone- penicillin-sensitive)	30.1 µg/mL
COC(=O)CCc1cccc(-c2cc(Cl)cc(C3(C4CCC4)C(C#N)=C(N)Oc4n[nH]c(C)c43)c2)c1		Serine hydroxymethyltransferase	Ki	absorbance	Plasmodium falciparum			0.174 µM
O[C@@H]1[C@@H](O)[C@@H](NCc2ccc(-c3ccncc3)cc2)[C@H]2O[C@H]2[C@H]1O		Amyloglucosidase	inhibition		Aspergillus niger	100 µM		0%
COC(=O)c1ccc(-c2cc(Cl)cc(C3(C4CCC4)C(C#N)=C(N)Oc4n[nH]c(C)c43)c2)cc1		Serine hydroxymethyltransferase	IC50	absorbance	Plasmodium falciparum			0.21 µM
Fc1ccc(N2CCN(c3cncc(-c4ccoc4)n3)CC2)cc1		UL97 kinase	IC50		Cytomegalovirus			<100 µM
CCCCCCCNC(=O)O[C@@H]([C@@H]1OC(C(=O)O)=C[C@H](N=C(N)N)[C@H]1NC(=O)O)[C@H](C)CO		Sialidase	IC50		Influenza A virus		H3N2 AICHI	0.0037 µM
N/C(=N\OC(=O)c1cccc(Cl)c1)c1ccc(Cl)cc1Cl		Polymerase	IC50	scintillation proximity / radiometric	Human cytomegalovirus			11 µM
Cc1[nH]nc2c1C(c1cc(Br)cc(C#N)c1)(C(C)C)C(C#N)=C(N)O2		Serine hydroxymethyltransferase	Ki	absorbance	Plasmodium falciparum			0.209 µM
N/C(=N\OC(=O)c1ccco1)c1ccc(Cl)cc1Cl		Polymerase	IC50	scintillation proximity / radiometric	Human cytomegalovirus			>100 µM
C/C(=N\NC(=S)NNC(=S)Nc1ccc(C#N)cc1)c1ccccn1		Ribonucleotide reductase	IC50		Herpes simplex virus 1			>5 µM
O=c1[nH]c(=O)n([C@@H]2O[C@H](CO)[C@@H](O)[C@@H]2O)cc1/C=C/Br		Thymidylate synthetase	IC50		Varicella zoster virus		KANNO (TK+)	>100 µM

The last 8 rows once more:

| SMILES | changes | target | endpoint | method | organism | tested at | strain | result |
|---|---|---|---|---|---|---|---|---|
| COC(=O)c1ccc(-c2cc(Cl)cc(C3(C4CCC4)C(C#N)=C(N)Oc4n[nH]c(C)c43)c2)cc1 |  | Serine hydroxymethyltransferase | IC50 | absorbance | Plasmodium falciparum |  |  | 0.21 µM |
| Fc1ccc(N2CCN(c3cncc(-c4ccoc4)n3)CC2)cc1 |  | UL97 kinase | IC50 |  | Cytomegalovirus |  |  | <100 µM |
| CCCCCCCNC(=O)O[C@@H]([C@@H]1OC(C(=O)O)=C[C@H](N=C(N)N)[C@H]1NC(=O)O)[C@H](C)CO |  | Sialidase | IC50 |  | Influenza A virus |  | H3N2 AICHI | 0.0037 µM |
| N/C(=N\OC(=O)c1cccc(Cl)c1)c1ccc(Cl)cc1Cl |  | Polymerase | IC50 | scintillation proximity / radiometric | Human cytomegalovirus |  |  | 11 µM |
| Cc1[nH]nc2c1C(c1cc(Br)cc(C#N)c1)(C(C)C)C(C#N)=C(N)O2 |  | Serine hydroxymethyltransferase | Ki | absorbance | Plasmodium falciparum |  |  | 0.209 µM |
| N/C(=N\OC(=O)c1ccco1)c1ccc(Cl)cc1Cl |  | Polymerase | IC50 | scintillation proximity / radiometric | Human cytomegalovirus |  |  | >100 µM |
| C/C(=N\NC(=S)NNC(=S)Nc1ccc(C#N)cc1)c1ccccn1 |  | Ribonucleotide reductase | IC50 |  | Herpes simplex virus 1 |  |  | >5 µM |
| O=c1[nH]c(=O)n([C@@H]2O[C@H](CO)[C@@H](O)[C@@H]2O)cc1/C=C/Br |  | Thymidylate synthetase | IC50 |  | Varicella zoster virus |  | KANNO (TK+) | >100 µM |